Results of unrelated studies side by side (data: NIAID ChemDB).

Common to all: tests on isolated targets; agent: HIV-1; protein: Reverse transcriptase; endpoint: IC50

ICn is the concentration giving n% inhibition.

O=C(CSc1nnc(Br)n1-c1ccc(C2CC2)cc1OC(F)(F)F)Nc1ccc(S(=O)(=O)O)cc1Cl ; read by: nucleotide incorporation / radiometric ; mutations: RT-Y181C ; result: 0.05–0.1 µM
CC(C)(C#Cc1ccc(NC(=O)CSc2nnnn2-c2ccc(C3CC3)cc2Cl)c(Cl)c1F)OCCOc1ccncc1 ; strain: WT ; read by: PicoGreen / fluorescence ; result: <1 µM
O=c1c(C2CCCC2)c(O)c2cccnc2n1O ; read by: luminescence ; result: 0.12 µM
CCc1ccc(-n2c(Br)nnc2SCC(=O)Nc2ccc(C(=O)NCC(=O)O)cc2Cl)c2ccccc12 ; read by: nucleotide incorporation / radiometric ; mutations: RT-Y188L ; result: >0.1 µM
CC(C)(C)c1ccc(-n2nnnc2SCC(=O)Nc2ccc(NC(=O)Cc3ccncc3)cc2Cl)c(Cl)c1 ; strain: WT ; read by: PicoGreen / fluorescence ; result: <1 µM
Cn1c(-c2ccc(-c3ccccc3)cc2)cs/c1=N\N=C1\C(=O)Nc2ccc(Cl)cc21 ; read by: RT activity / nucleotide incorporation / fluorescence ; result: 9.5 µM
Cc1nc2sc3c(c2c(=O)o1)CCC3 ; read by: nucleotide incorporation / fluorescence ; result: 27.2 µM
CN(C)CCCNC(=O)C(C)(C)C#Cc1ccc(NC(=O)CSc2nnnn2-c2ccc(C3CC3)cc2Cl)c(Cl)c1 ; read by: PicoGreen / fluorescence ; mutations: RT-K103 Y181C ; result: <1 µM
O=c1oc(-c2ccccc2O)nc2sc3c(c12)CCCCC3 ; read by: nucleotide incorporation / fluorescence ; result: >100 µM
NS(=O)(=O)c1ccc(NC(=O)CSc2nnc(Br)n2-c2ccc(C3CC3)c3c2CCCC3)c(Cl)c1 ; read by: nucleotide incorporation / radiometric ; mutations: RT-Y181C ; result: <0.05 µM
Cn1c(-c2ccc(F)cc2)cs/c1=N\N=C1\C(=O)Nc2ccc(Cl)cc21 ; read by: RT activity / nucleotide incorporation / fluorescence ; result: 31 µM
Cc1ccc(-n2c(SCC(=O)Nc3ccc(S(=O)(=O)NC(C)C(=O)O)cc3Cl)nnc2C(F)F)c2c1CCCC2 ; read by: nucleotide incorporation / radiometric ; result: <0.05 µM
CC(C)(C#Cc1ccc(NC(=O)CSc2nnnn2-c2ccc(CC3CC3)cc2Cl)c(Cl)c1)C(=O)NCCCN1CCCC1=O ; strain: WT ; read by: PicoGreen / fluorescence ; result: <1 µM
COc1ccc2c(C3CC3)ccc(-n3c(Br)nnc3SCC(=O)Nc3ccc(S(N)(=O)=O)cc3Cl)c2c1 ; read by: nucleotide incorporation / radiometric ; result: <0.05 µM
CC(C)(C#Cc1ccc(NC(=O)CSc2nnnn2-c2cc(Cl)ccc2Cl)c(Cl)c1)C(=O)O ; strain: WT ; read by: PicoGreen / fluorescence ; result: <1 µM
O=C(/C=C/c1cccn1Cc1ccccc1Cl)CC(=O)C(=O)O ; read by: RT activity / nucleotide incorporation ; result: 40 µM
O=C1CSC(c2c(Cl)cccc2Cl)N1c1nc(-c2ccccc2)cc(-c2ccccc2)n1 ; read by: absorbance ; result: ~10 µg/mL
CCc1ccc(-n2c(Br)nnc2SCC(=O)Nc2ccc(C(=O)NCCC#N)cc2Cl)c2ccccc12 ; read by: nucleotide incorporation / radiometric ; mutations: RT-Y188L ; result: 0.05–0.1 µM
CC(C)(C)c1ccc(-n2nnnc2SCC(=O)Nc2ccc(C(=O)N3CCOCC3)cc2Cl)c(Cl)c1 ; strain: WT ; read by: PicoGreen / fluorescence ; result: <1 µM
CCN1c2ncc(CCOc3ccc(-c4cc(C)nc(C)c4)cc3C)cc2C(=O)N(C)c2cccnc21 ; strain: IIIB ; read by: nucleotide incorporation / radiometric ; result: <0.05 µM
CC(C)(C)c1ccc(-n2nnnc2SCC(=O)Nc2ccc(C#CCOC(N)=O)cc2Cl)c(Cl)c1 ; strain: WT ; read by: PicoGreen / fluorescence ; result: <1 µM
CC[C@H](C)[C@H](NC(=O)c1ccc(NC(=O)CSc2nnc(Br)n2-c2ccc(C3CC3)c3ccccc23)c(Cl)c1)C(=O)O ; read by: nucleotide incorporation / radiometric ; result: <0.05 µM
Cc1ccc(Cn2cccc2/C=C/C(=O)CC(=O)C(=O)O)c(C)c1 ; read by: RT activity / nucleotide incorporation ; result: 25 µM
CC(C)(C#Cc1ccc(NC(=O)CSc2nnnn2-c2cc(C(C)(C)C)cc(Br)c2Cl)c(Cl)c1)NC(=O)c1cc[n+]([O-])cc1 ; strain: WT ; read by: PicoGreen / fluorescence ; result: <1 µM
Cc1cc(C(F)(F)F)nc(N2C(=O)CSC2c2c(F)cccc2F)n1 ; read by: absorbance ; result: >100 µg/mL
O=C(CSc1nnc(Br)n1-c1ccc(C2CC2)cc1Cl)Nc1ccc(C(=O)O)cc1Cl ; read by: nucleotide incorporation / radiometric ; mutations: RT-Y181C ; result: <0.05 µM
Cc1cc(C(F)(F)F)nc(N2C(=O)CSC2c2c(F)cccc2Cl)n1 ; read by: absorbance ; result: ~10 µg/mL
Cc1nnc(SCC(=O)Nc2ccc(-c3ccc(OCC(=O)O)cc3)cc2Cl)n1-c1ccc(C(C)(C)C)cc1Cl ; read by: PicoGreen / fluorescence ; mutations: RT-K103 Y181C ; result: <1 µM
COc1ccc(-c2nnc(COc3ccc(Cl)c(Oc4cc(Cl)cc(C#N)c4)c3)o2)cc1 ; read by: scintillation proximity ; mutations: Y181C ; result: 0.085 µM
CCN1c2ncc(CCOc3ccc(-c4cncnc4)cc3)cc2C(=O)N(C)c2cccnc21 ; strain: IIIB ; read by: nucleotide incorporation / radiometric ; mutations: RT-K103N Y181C ; result: >0.1 µM
O=C(CSC(=O)N1CCCc2cc(Cl)cc(Cl)c21)Nc1ccc(C(=O)NCc2ccccc2)cc1Cl ; read by: scintillation proximity ; mutations: K103N ; result: 0.002 µM
CCOC(=O)C(=O)CC(=O)/C=C/c1cccn1Cc1ccc(C)cc1C ; read by: RT activity / nucleotide incorporation ; result: 12.1 µM
Cc1ccc([C@H]2C[C@]23C(=O)N(C)c2ccccc23)cc1 ; read by: RT activity / nucleotide incorporation ; result: >120 µg/mL
Cn1c(-c2cccc([N+](=O)[O-])c2)cs/c1=N\N=C1\C(=O)Nc2ccccc21 ; read by: RT activity / nucleotide incorporation / fluorescence ; result: 69 µM
N#Cc1cc(Cl)cc(Oc2cc(OCc3nnc(-c4ccc(Cl)cc4)o3)ccc2Cl)c1 ; read by: scintillation proximity ; mutations: Y181C ; result: 0.091 µM
Cc1cc(S(N)(=O)=O)ccc1NC(=O)COc1ccccc1C(=O)c1cc(Cl)cc(C#N)c1 ; strain: NNRTI-resistant ; read by: fluorescence ; mutations: RT-K103N Y181C ; result: 0.0108 µM
CCOC(=O)c1ccc(NC(=O)Nc2ccc(NC(=O)CSc3nnnn3-c3ccc(C(C)(C)C)cc3Cl)c(Cl)c2)cc1 ; strain: WT ; read by: PicoGreen / fluorescence ; result: <1 µM
CCOC(=O)CN(C)C(=O)c1ccc(NC(=O)CSc2nnc(Br)n2-c2ccc(CC)c3ccccc23)c(Cl)c1 ; read by: nucleotide incorporation / radiometric ; mutations: RT-Y188L ; result: >0.1 µM
CC(C)(C)c1ccc(-n2nnnc2SCC(=O)Nc2ccc(C(=O)NCc3cccnc3)cc2Cl)c(Cl)c1 ; read by: PicoGreen / fluorescence ; mutations: RT-K103 Y181C ; result: <1 µM
CCN1c2ncc(CCOc3ccc(-c4ccc(CCC(=O)O)o4)cc3)cc2C(=O)N(C)c2cccnc21 ; strain: IIIB ; read by: nucleotide incorporation / radiometric ; mutations: RT-K103N Y181C ; result: >0.1 µM
CCc1ccc(-n2c(Br)nnc2SCC(=O)Nc2ccc(C(=O)NCCOC)cc2Cl)c2ccccc12 ; read by: nucleotide incorporation / radiometric ; mutations: RT-Y188L ; result: <0.05 µM
CC(C)(C#Cc1ccc(NC(=O)CSc2nnnn2-c2ccc(C3CC3)cc2Cl)c(Cl)c1)NCc1cc[n+]([O-])cc1 ; strain: WT ; read by: PicoGreen / fluorescence ; result: <1 µM
NS(=O)(=O)c1ccc(NC(=O)CSc2nnc(Br)n2-c2ccc(C3CC3)c3ccccc23)c(Cl)c1 ; read by: nucleotide incorporation / radiometric ; mutations: RT-Y188L ; result: 0.05–0.1 µM
CN1C(=O)[C@]2(C[C@@H]2c2ccc(Cl)cc2)c2ccccc21 ; read by: RT activity / nucleotide incorporation ; result: ≥97.28 µg/mL
CCCc1ccc(-n2c(Br)nnc2SCC(=O)Nc2ccc(S(N)(=O)=O)cc2Cl)c2ccccc12 ; read by: nucleotide incorporation / radiometric ; result: <0.05 µM
CC(C)(C)c1ccc(-n2nnnc2SCC(=O)Nc2ccc(C(=O)NCc3ccc(N)cc3)cc2Cl)c(Cl)c1 ; strain: WT ; read by: PicoGreen / fluorescence ; result: <1 µM
Cn1c(-c2ccc(F)cc2F)cs/c1=N\N=C1\C(=O)Nc2ccc(Cl)cc21 ; read by: RT activity / nucleotide incorporation / fluorescence ; result: 54 µM
O=C(CSc1nnc(Br)n1-c1ccc(C2CC2)c2ccccc12)Nc1ccc(C(=O)O)cc1Cl ; read by: nucleotide incorporation / radiometric ; mutations: RT-Y181C ; result: <0.05 µM
O=C(Nc1sc2c(c1C(=O)Nc1ccccn1)CCCCC2)c1ccc(O)c(O)c1 ; read by: nucleotide incorporation / fluorescence ; result: 20.9 µM
CC(C)c1cc(Cl)c(-n2nnnc2SCC(=O)Nc2ccc(-c3ccc(CC(=O)O)cc3)cc2Cl)c(C(F)(F)F)c1 ; strain: WT ; read by: PicoGreen / fluorescence ; result: <1 µM
N#Cc1cc(Cl)cc(Oc2cc(OCc3ncc(-c4ccc(Cl)cc4)o3)ccc2Cl)c1 ; read by: scintillation proximity ; mutations: Y181C ; result: 0.17 µM
CC(C)(C#Cc1ccc(NC(=O)CSc2nnnn2-c2ccc(C3CC3)cc2Cl)c(Cl)c1)NC(=O)CN1CCC(C(=O)O)CC1 ; read by: PicoGreen / fluorescence ; mutations: RT-K103 Y181C ; result: <1 µM
Cn1c(-c2ccc(C#N)cc2)cs/c1=N\N=C1\C(=O)Nc2ccccc21 ; read by: RT activity / nucleotide incorporation / fluorescence ; result: 27 µM
NS(=O)(=O)c1ccc(NC(=O)CSc2nnc(Br)n2-c2ccc3c4c(cccc24)CC3)c(Cl)c1 ; read by: nucleotide incorporation / radiometric ; mutations: RT-Y188L ; result: 0.05–0.1 µM
CC(C)(C#Cc1ccc(NC(=O)CSc2nnnn2-c2ccc(C3CC3)cc2Cl)c(Cl)c1)NC(=O)CN=c1ccn(O)cc1 ; read by: PicoGreen / fluorescence ; mutations: RT-K103 Y181C ; result: <1 µM
N#Cc1cc(Cl)cc(Oc2cc(OCc3nc(-c4ccc(Cl)cc4)no3)ccc2Cl)c1 ; read by: scintillation proximity ; mutations: Y181C ; result: 3.1 µM
O=C(CSc1nnnn1-c1ccc(C2CC2)cc1Cl)Nc1ccc(C#CC2(CN3CCC(O)CC3)CC2)cc1Cl ; strain: WT ; read by: PicoGreen / fluorescence ; result: <1 µM
CCc1ccc(-n2c(Br)nnc2SCC(=O)Nc2ccc(C(=O)NCC(O)CO)cc2Cl)c2ccccc12 ; read by: nucleotide incorporation / radiometric ; mutations: RT-Y188L ; result: >0.1 µM
Cc1nc2ccccc2c(=O)o1 ; read by: nucleotide incorporation / fluorescence ; result: >100 µM
CCc1ccc(-n2c(Br)nnc2SCC(=O)Nc2ccc(C(=O)NCC3CCCO3)cc2Cl)c2ccccc12 ; read by: nucleotide incorporation / radiometric ; mutations: RT-Y181C ; result: 0.05–0.1 µM
Cc1ccc(-n2nnnc2SCC(=O)Nc2ccc(-c3cscn3)cc2Cl)c(Cl)c1 ; read by: PicoGreen / fluorescence ; mutations: RT-K103 Y181C ; result: <1 µM
CCN1c2ncc(CCOc3ccc(-c4ccc(C)nc4)cc3C)cc2C(=O)N(C)c2cccnc21 ; strain: IIIB ; read by: nucleotide incorporation / radiometric ; result: <0.05 µM
O=C(O)CCNC(=O)c1ccc(NC(=O)CSc2nnc(Br)n2-c2ccc(C3CC3)c3ccccc23)c(Cl)c1 ; read by: nucleotide incorporation / radiometric ; mutations: RT-Y181C ; result: <0.05 µM
CC(C)(C#Cc1ccc(NC(=O)CSc2nnnn2-c2cc(C(F)(F)F)ccc2Cl)c(Cl)c1F)C(=O)NCCN1CCCC1 ; read by: PicoGreen / fluorescence ; mutations: RT-K103 Y181C ; result: <1 µM
Cc1nc2c3c(sc2c(=O)o1)CCCCC3 ; read by: nucleotide incorporation / fluorescence ; result: 22.6 µM
Cc1cc(-c2ccccc2)nc(N2C(=O)CSC2c2c(F)cccc2Cl)n1 ; read by: absorbance ; result: 10–100 µg/mL
CC(C)(C)c1ccc(-n2nnnc2SCC(=O)Nc2ccc(OCC(=O)N3CCOCC3)cc2Cl)c(Cl)c1 ; read by: PicoGreen / fluorescence ; mutations: RT-K103 Y181C ; result: <1 µM
COc1ccc(-c2nc3sc4c(c3c(=O)o2)CCCCC4)cc1 ; read by: nucleotide incorporation / fluorescence ; result: >100 µM

4 of the rows above, restated:

smiles | strain | read by | mutations | result
CCN1c2ncc(CCOc3ccc(-c4ccc(CCC(=O)O)o4)cc3)cc2C(=O)N(C)c2cccnc21 | IIIB | nucleotide incorporation / radiometric | RT-K103N Y181C | >0.1 µM
Cc1ccc(Cn2cccc2/C=C/C(=O)CC(=O)C(=O)O)c(C)c1 | - | RT activity / nucleotide incorporation | - | 25 µM
Cc1nc2sc3c(c2c(=O)o1)CCC3 | - | nucleotide incorporation / fluorescence | - | 27.2 µM
CC(C)(C#Cc1ccc(NC(=O)CSc2nnnn2-c2ccc(C3CC3)cc2Cl)c(Cl)c1)NC(=O)CN1CCC(C(=O)O)CC1 | - | PicoGreen / fluorescence | RT-K103 Y181C | <1 µM

a–b is a range or a potency band. An empty or dashed field is not shown. Neighbouring rows are from separate reports.